{"source": "patent US20060002960A1", "about": "(priority 2003, published 2006)", "tested_on": "mice", "details": "mouse, in vivo", "data": [{"substance": "cholera toxin [CT]", "values": [{"measurement": "TT IgG, Assay values (Elisa Units) Individual Mice", "result": 49754, "unit": "Elisa Units"}]}]}
